Reference: article PMC7376557

Target: T1, SpoVG (nonphosphorylated) (UniProt Q7A7B5)
T1 sequence (looked up, limits assumed): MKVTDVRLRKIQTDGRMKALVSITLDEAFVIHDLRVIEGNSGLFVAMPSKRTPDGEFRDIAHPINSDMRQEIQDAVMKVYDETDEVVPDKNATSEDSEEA
Assay: EMSA
Conditions: 50 mM Tris-HCl, 300 mM NaCl, pH 8.0, shift abolished by unlabeled psasC, EMSA: 50 mM Tris-HCl, pH 8.0, 25 C, 30 min, 4% native PAGE in 1x TBE, recombinant protein, label: biotin (reverse primer), probe letters rebuilt from the primers and the genome

Sequence: TTTCTTTAACAAATTCATTTCATTTTCCTCCTGGTTGTCTGTTCTCTGCTGTGTTGTTTAGAATTATGCTAAAAATATACGCTCTCTCATATTATGTTTATAGCTATATTATTTTGTACAATATTTTAAGTTCACTCAATTTTATCATCATCATTTTATAAAATAAAGTTTTATTTTATTACAATTTAGTTTCCGTTTTGTAATTAAAATCTTAATAAAACATAACAAGAACGCTTTAGATTGTTTTGTAACAGAAAGTAATTCATACCAAAAAACACCAAGCAACCGAAACGTTACTTGGTGTCATTACAAATGTAATATTATTTTAAATTATGTCACTACTTTAAATACTTTTTATTTCCAAACCTTCATCGCCCCATGCGTGCATGCCGCCTTCGACATTTACGGCATCAATGCCATTTGCCTCTAAATATTCTACAACTTTAGCGCTTCGAACTCCACCAGCACATACAATATAATATATTTCATTTTTATTAAATGAATTTAAATTATCCGGA (double strand) [psasC promoter probe]
- binding result: binds

The exact form of at least one protein or probe is not confirmed. Tags and fusion partners may be left off the protein sequences shown.
